## Sequence variants of PSTVd loop 6 after infection

PSTVd intermediate strain, loop 6: wild type UGACCGCGAG, pool pattern UNNNCGNNNG; upper and lower strand joined, each 5' to 3', the first 5 letters being the upper strand, closing pairs included.

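A pool of all variants was put on leaves of three Nicotiana benthamiana plants. Progeny were sequenced from the inoculated region (day 5), the margin of the inoculated leaf (day 10) and systemic leaves (day 12).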

Values are reads per thousand in the sample; higher means more abundant, 0 means not found. Each value is the mean of three plants. "Pool" is the share in the plasmid pool used as inoculum, on the same scale. The inoculated region was read from the minus strand, the other sites from the plus strand. The authors trace changes outside the varied positions to PCR and sequencing errors or to mutation in the plant; presence does not show that a variant is infectious alone.

For UUGUCGCUAG (pool 0.235) the result was inoculated region 0.100; leaf margin 0; systemic leaves 0.
For UUGACGGCUG (pool 0.144) the result was inoculated region 0.0893; leaf margin 0; systemic leaves 0.
For UCUCCGCUAG (pool 0.183) the result was inoculated region 0.0893; leaf margin 0.00920; systemic leaves 0.
For UCCUCGCUUG (pool 0.157) the result was inoculated region 0.0832; leaf margin 0; systemic leaves 0.
For UGUUCGCCUG (pool 0.248) the result was inoculated region 0.0529; leaf margin 0.0176; systemic leaves 0.
For UGUCCGCUGG (pool 0.131) the result was inoculated region 0.0598; leaf margin 0; systemic leaves 0.
For UACUCGUUCG (pool 0.131) the result was inoculated region 0.0416; leaf margin 0.0276; systemic leaves 0.
For UGGGCGGGGG (pool 0.196) the result was inoculated region 0.0654; leaf margin 0; systemic leaves 0.
For UGUGCGAGUG (pool 0.340) the result was inoculated region 0.0831; leaf margin 0; systemic leaves 0.
For UCGUCGCCUG (pool 0.144) the result was inoculated region 0.0954; leaf margin 0; systemic leaves 0.
For UGAGCGAUUG (pool 0.327) the result was inoculated region 0.0482; leaf margin 0.00773; systemic leaves 0.
For UCCGCGUCGG (pool 0.235) the result was inoculated region 0.0880; leaf margin 0; systemic leaves 0.
For UCAUCGUUCG (pool 0.196) the result was inoculated region 0.0893; leaf margin 0.00920; systemic leaves 0.
For UAAACGCUCG (pool 0.209) the result was inoculated region 0.645; leaf margin 0.0746; systemic leaves 0.
For UCCCCGUGCG (pool 0.261) the result was inoculated region 0.0900; leaf margin 0.0168; systemic leaves 0.
For UAGACGAAUG (pool 0.431) the result was inoculated region 0.102; leaf margin 0.0169; systemic leaves 0.00684.
For UGUUCGGAAG (pool 0.144) the result was inoculated region 0.0414; leaf margin 0; systemic leaves 0.
For UGCACGUAGG (pool 0.275) the result was inoculated region 0.113; leaf margin 0.00773; systemic leaves 0.
For UGCGCGGUAA (pool 0.0131) the result was inoculated region 0.500; leaf margin 0.107; systemic leaves 0.
For UGUGCGUACG (pool 0.248) the result was inoculated region 0.119; leaf margin 0; systemic leaves 0.
For UGCGCGGUAG (pool 0.275) the result was inoculated region 0.579; leaf margin 0.0794; systemic leaves 0.
For UUACCGAGUG (pool 0.248) the result was inoculated region 0.221; leaf margin 0.00920; systemic leaves 0.
For UUGCCGUCGG (pool 0.405) the result was inoculated region 0.0898; leaf margin 0.00841; systemic leaves 0.
For UUCCCGGCCG (pool 0.222) the result was inoculated region 0.113; leaf margin 0; systemic leaves 0.
For UCACCGCGGG (pool 0.157) the result was inoculated region 0.101; leaf margin 0.0155; systemic leaves 0.0195.
For UAACCGGUUG (pool 0.261) the result was inoculated region 0.0652; leaf margin 0; systemic leaves 0.
For UAUUCGACAG (pool 0.222) the result was inoculated region 0.0893; leaf margin 0.0339; systemic leaves 0.
For UAAUCGGAUG (pool 0.235) the result was inoculated region 0.0708; leaf margin 0.0169; systemic leaves 0.
For UAGCCGAGCG (pool 0.222) the result was inoculated region 0.0954; leaf margin 0.0239; systemic leaves 0.
For UCGCCGGCUG (pool 0.431) the result was inoculated region 0.102; leaf margin 0; systemic leaves 0.
For UCUCCGAUAG (pool 0.327) the result was inoculated region 0.172; leaf margin 0.0773; systemic leaves 0.
For UCCCCGUGAG (pool 0.261) the result was inoculated region 0.113; leaf margin 0.00773; systemic leaves 0.
For UAUGCGGCGG (pool 0.235) the result was inoculated region 0.0537; leaf margin 0; systemic leaves 0.
For UAAGCGGAAG (pool 0.0784) the result was inoculated region 0.623; leaf margin 0.0775; systemic leaves 0.

The first 4 entries again:

sequence	pool	inoculated region	leaf margin	systemic leaves
UUGUCGCUAG	0.235	0.100	0	0
UUGACGGCUG	0.144	0.0893	0	0
UCUCCGCUAG	0.183	0.0893	0.00920	0
UCCUCGCUUG	0.157	0.0832	0	0

For reference, wild type rose from 20.7 per thousand in the pool to 195, 198, 203 (inoculated region), 629, 591, 734 (leaf margin) and 942, 870, 868 (systemic leaves). Samples held 36,220 to 57,551 reads, so the smallest values rest on one or two reads.

Values reported by Wu et al. 2024 (doi:10.1371/journal.ppat.1012142).